Measured values from several laboratories, pooled; numbers as filed in NIAID ChemDB.

All rows: tests in culture

Blank or dashed fields: not listed here. Percent inhibition refers to the dose given; in toxicity tests it is the harm to the cells. ECn: concentration that inhibits the pathogen or its effect by n%. Conditions beyond the fields shown may differ between rows. MIC50, MIC90 and the like: level of inhibition, or share of isolates inhibited.

SMILES	agent	measure	method	mutations	strain	tested at	cells	result
C#CC[C@@H](C(=O)N[C@H](/C=C/C(=O)OCC)C[C@@H]1CCNC1=O)n1cccc(NC(=O)c2cc(C)on2)c1=O	Rhinovirus	inhibition	cytopathic effect / XTT		Clinical isolate 0 (serotype 39)	0.142 µM	H1-HELA	90%
CN(C)CCCn1c(Cn2nnc3ccccc32)nc2ccccc21	Respiratory syncytial virus	inhibition			LONG	4 µg/mL	HEP-2	100%
CO[C@H]1C[C@H](O[C@@H]2CC[C@@]3(O)CC[C@@H]4[C@H](CC[C@]5(C)C(C6=CC(=O)OC6)CC[C@]45O)[C@@]3(C=O)C2)O[C@H](C)[C@H]1O[C@@H]1O[C@H](CO[C@@H]2O[C@H](CO)[C@@H](O)[C@H](O)[C@H]2O)[C@@H](O)[C@H](O)[C@H]1O	Kaposi sarcoma virus	EC50	GFP / microscopy				BC3	10 µM
Nc1ccn(C[C@@H](CO)OCP(=O)(O)O)c(=O)n1	Adenovirus	EC90	virus yield		TAK (TYPE 41)			0.2 µg/mL
COc1cc2c(cc1OC)C1OCCCN1c1c-2ccc2cc3c(cc12)OCO3	Saccharomyces cerevisiae	MIC			JHY6-1C			50 µg/mL
Cc1ccc(C(=O)Nc2ccc(S(=O)(=O)O)c3cc(S(=O)(=O)O)cc(S(=O)(=O)O)c23)cc1NC(=O)c1cccc(NC(=O)Nc2cccc(C(=O)Nc3cc(C(=O)Nc4ccc(S(=O)(=O)O)c5cc(S(=O)(=O)O)cc(S(=O)(=O)O)c45)ccc3C)c2)c1	West Nile virus	EC50	cytopathic effect / visual reading		NEW YORK		VERO	119 µg/mL
Nc1nc2c(ncn2COCOCP(=O)(O)O)c(=O)[nH]1	Parainfluenza virus	EC90	virus yield		14798 (TYPE 3)			40 µg/mL
CC[C@@]1(OC(=O)CN)C(=O)OCc2c1cc1n(c2=O)Cc2c-1nc1cc3c(cc1c2CCl)OCO3	Saccharomyces cerevisiae	MIC			Mutant ΔERG6			3.12 µg/mL
CO[C@H]1[C@@H](O)[C@@H](C)O[C@H](O[C@H]2[C@H](Oc3cccc4c(O)c5c(=O)oc6ccc(C)c7c(=O)oc(c34)c5c67)O[C@H](C)[C@H](O)[C@@H]2O)[C@@H]1O	Kaposi sarcoma virus	EC50	GFP / microscopy				BC3	5 µM
C#C[C@]1(CO)O[C@@H](n2cnc3c(N)nc(F)nc32)CC1O	HIV-2	EC50	β-galactosidase / absorbance	K65R Y115F Q151M M184V	ROD9		MAGIC-5A	0.0053 µM
c1ccc(-c2cccc(-c3ccccn3)n2)nc1	Kaposi sarcoma virus	EC50	GFP / microscopy				BC3	<0.05 µM
CC[C@@]1(OC(=O)CN)C(=O)OCc2c1cc1n(c2=O)Cc2cc3cc(O)ccc3nc2-1	Saccharomyces cerevisiae	MIC			Mutant ΔERG6 ΔTOP1			>100 µg/mL
O=c1cnn([C@@H]2O[C@H](CO)[C@@H](O)[C@H]2O)c(=O)[nH]1	West Nile virus	EC50	virus yield		NEW YORK		MA-104	<0.3 µg/mL
COc1nc(C(Cl)(Cl)Cl)c(Cl)c(OC)c1Cl	Kaposi sarcoma virus	EC50	GFP / microscopy				BC3	>100 µM
CC[C@@]1(OC(=O)CN)C(=O)OCc2c1cc1n(c2=O)Cc2cc3cc4c(cc3nc2-1)OCO4	Saccharomyces cerevisiae	MIC			JHY6-1C			3.12 µg/mL
CC(C)[C@H](NC(=O)[C@H](CCCN=C(N)N)NC(=O)N[C@@H](Cc1ccccc1)C(=O)O)C(=O)N[C@H](C=O)CCCN=C(N)N	Cryptosporidium parvum	EC50	cell count / microscopy					<100 µg/mL
CN1CCC[C@]1(N)Cn1c(Cn2nnc3ccccc32)nc2ccccc21	Respiratory syncytial virus	inhibition			LONG	4 µg/mL	HEP-2	54%
NC(=O)c1c[se]c([C@@H]2O[C@H](CO)[C@@H](O)[C@H]2O)n1	West Nile virus	EC50	cytopathic effect / visual reading		NEW YORK		VERO	20 µg/mL
CC[C@H]1OC(=O)[C@H](C)[C@@H](O[C@H]2C[C@@](C)(OC)[C@@H](O)[C@H](C)O2)[C@H](C)[C@@H](O[C@@H]2O[C@H](C)C[C@H](N(C)C)[C@H]2O)[C@](C)(O)C[C@@H](C)C(=O)[C@H](C)[C@@H](O)[C@]1(C)O	Haemophilus influenzae	MIC90			44 strains			8 µg/mL
CN1CCC[C@@]1(N)Cn1c(Cn2nnc3ccccc32)nc2ccccc21	Respiratory syncytial virus	inhibition			LONG	4 µg/mL	HEP-2	53%
CC(C)OC(=O)OCOP(=O)(CO[C@H](C)Cn1cnc2c(N)ncnc21)OCOC(=O)OC(C)C	HIV-2	EC50	β-galactosidase / absorbance		ROD9		MAGIC-5A	0.0064 µM
O=c1[nH]cnc2c([C@@H]3O[C@H](CO)[C@@H](O)[C@H]3O)[nH]nc12	West Nile virus	EC50	cytopathic effect / visual reading		NEW YORK		VERO	>25 µg/mL
CC[C@H]1OC(=O)[C@H](C)[C@@H](O[C@H]2C[C@@](C)(OC)[C@@H](O)[C@H](C)O2)[C@H](C)[C@@H](O[C@@H]2O[C@H](C)C[C@H](N(C)C)[C@H]2O)[C@](C)(OC)C[C@@H](C)C(=O)[C@H](C)[C@@H](O)[C@]1(C)O	Staphylococcus aureus	MIC50			20 strains (methicillin-resistant)			>32 µg/mL
CC[C@@]1(O)C(=O)OCc2c1cc1n(c2=O)Cc2cc3c(N)c4c(cc3nc2-1)OCO4	Saccharomyces cerevisiae	MIC			Mutant ΔERG6			>100 µg/mL
O=c1[nH]c(=O)n([C@@H]2O[C@H](CO)[C@@H](O)[C@H]2O)[nH]c1=S	West Nile virus	EC50	cytopathic effect		NEW YORK		VERO	8 µg/mL
CCCN1CCN(c2cc(=O)c3nc4c(oc3c2)c2c(=O)c3c(O)c(C)c5c(c34)=C(O)[C@@](C)(O/C=C/[C@H](OC)[C@@H](C)[C@@H](OC(C)=O)[C@H](C)[C@H](O)[C@H](C)[C@@H](O)[C@@H](C)/C=C/C=C(/C)C(=O)N2)O5)CC1	Staphylococcus aureus	MIC90			20 strains (methicillin-susceptible)			0.0078 µg/mL
CCn1cc(C(=O)O)c(=O)c2cc(F)c(N3CCNCC3)cc21	Staphylococcus aureus	MIC90			30 strains			4 µg/mL
CO/N=C1\CN(c2nc3c(cc2F)c(=O)c(C(=O)O)cn3C2CC2)CC1CN	Haemophilus influenzae	MIC			HI43			0.125 µg/mL
Nc1ncnc2c1ncn2C[C@@H](CO)OCP(=O)(O)O	Adenovirus	EC50	cytopathic effect		TRIM (TYPE 8)			2 µg/mL
CC[C@]1(O)C(=O)OCc2c1cc1n(c2=O)Cc2cc3cc4c(cc3nc2-1)OCO4	Saccharomyces cerevisiae	MIC			JHY6-1C			>100 µg/mL
Nc1ccn([C@@H]2C=C(CO)[C@@H](O)[C@@H]2O)c(=O)n1	West Nile virus	EC50	cytopathic effect		NEW YORK		VERO	<0.32 µg/mL
CC1(C)S[C@@H]2[C@H](NC(=O)[C@H](N)c3ccc(O)cc3)C(=O)N2[C@H]1C(=O)O	Staphylococcus aureus	MIC90			30 strains			0.25 µg/mL
N#Cc1c(Br)n([C@@H]2O[C@H](CO)[C@@H](O)[C@H]2O)c2ncnc(N)c12	West Nile virus	EC50	cytopathic effect		NEW YORK		VERO	>10.6 µg/mL
CC[C@H](C)[C@H]1NC(=O)[C@@H](NC(=O)[C@@H](CC(C)C)NC)[C@@H](C)OC(=O)[C@H](Cc2ccc(OC)cc2)N(C)C(=O)[C@@H]2CCCN2C(=O)[C@H](CC(C)C)NC(=O)[C@@H](C)C(=O)[C@H](C(C)C)OC(=O)C[C@@H]1O	Dengue virus	inhibition	plaque count		TYPE 3	2.5 µg/mL	LLC-MK2	0%
COc1ccc2nc(C)cc(NCCCCCCCCCNc3cc(C)nc4ccc(OC)cc34)c2c1	Kaposi sarcoma virus	EC50	GFP / microscopy				BC3	1 µM
Nc1ccn(C[C@@H](CO)OCP(=O)(O)O)c(=O)n1	Herpes simplex virus 1	EC50	cytopathic effect		KOS S2242-resistant		HEL	0.56 µg/mL
CC(=O)OC[C@H]1O[C@@H](n2ncc(=O)[nH]c2=O)[C@H](OC(C)=O)[C@@H]1OC(C)=O	West Nile virus	EC50	cytopathic effect		NEW YORK		VERO	1.3 µg/mL
CCC[C@H](NC(=O)[C@@H]1[C@H]2CCC[C@H]2CN1C(=O)[C@@H](NC(=O)[C@@H](NC(=O)c1cnccn1)C1CCCCC1)C(C)(C)C)C(=O)C(=O)NC1CC1	Hepatitis C virus	EC50	luciferase		1b C159S			0.623 µM
NC(=O)c1ncn([C@@H]2O[C@H](CO)[C@@H](O)[C@H]2O)n1	Respiratory syncytial virus	inhibition	plaque count		LONG	32 µg/mL	HEP-2	10%

Repeating the first 6 entries:

SMILES	agent	measure	method	mutations	strain	tested at	cells	result
C#CC[C@@H](C(=O)N[C@H](/C=C/C(=O)OCC)C[C@@H]1CCNC1=O)n1cccc(NC(=O)c2cc(C)on2)c1=O	Rhinovirus	inhibition	cytopathic effect / XTT		Clinical isolate 0 (serotype 39)	0.142 µM	H1-HELA	90%
CN(C)CCCn1c(Cn2nnc3ccccc32)nc2ccccc21	Respiratory syncytial virus	inhibition			LONG	4 µg/mL	HEP-2	100%
CO[C@H]1C[C@H](O[C@@H]2CC[C@@]3(O)CC[C@@H]4[C@H](CC[C@]5(C)C(C6=CC(=O)OC6)CC[C@]45O)[C@@]3(C=O)C2)O[C@H](C)[C@H]1O[C@@H]1O[C@H](CO[C@@H]2O[C@H](CO)[C@@H](O)[C@H](O)[C@H]2O)[C@@H](O)[C@H](O)[C@H]1O	Kaposi sarcoma virus	EC50	GFP / microscopy				BC3	10 µM
Nc1ccn(C[C@@H](CO)OCP(=O)(O)O)c(=O)n1	Adenovirus	EC90	virus yield		TAK (TYPE 41)			0.2 µg/mL
COc1cc2c(cc1OC)C1OCCCN1c1c-2ccc2cc3c(cc12)OCO3	Saccharomyces cerevisiae	MIC			JHY6-1C			50 µg/mL
Cc1ccc(C(=O)Nc2ccc(S(=O)(=O)O)c3cc(S(=O)(=O)O)cc(S(=O)(=O)O)c23)cc1NC(=O)c1cccc(NC(=O)Nc2cccc(C(=O)Nc3cc(C(=O)Nc4ccc(S(=O)(=O)O)c5cc(S(=O)(=O)O)cc(S(=O)(=O)O)c45)ccc3C)c2)c1	West Nile virus	EC50	cytopathic effect / visual reading		NEW YORK		VERO	119 µg/mL